Pooled drug test results. Numbers come from NIAID ChemDB, via PubChem.

All rows: whole-cell or culture tests; species: HIV-1; endpoint: fold resistance

Fold resistance has wild type as its base. Lines come from different laboratories, so protocols vary. An empty or dashed field is not shown.

structure	cells	mutations	strain	result
Cc1ccnc2c1NC(=O)c1cccnc1N2C1CC1	PBMC	RT-K103N Y181C	A17	>2940
CCCCC/C=C\C/C=C\C/C=C\CCCCC(=O)O		RT-K103N V108I		141
Nc1nc(=O)n([C@@H]2CC[C@H](CO)O2)cc1F	HT4 + HT4 LacZ-1	RT-M184V	184V (RT-M184V)	>500
S=C(NCCc1ccccn1)Nc1ccc(Br)cn1	PBMC	RT-V106A	RT-MDR(RT-V106A)	2.86
O=C1O[C@H]2[C@@H]3OC(=O)c4cc(O)c(O)c(O)c4-c4c(cc(O)c(O)c4O)C(=O)OC[C@H]2O[C@@H](OC(=O)c2cc(O)c(O)c(O)c2)[C@@H]3OC(=O)c2cc(O)c(O)c3c2[C@@H]2C1=CC(=O)[C@](O)(O3)C2(O)O	MAGI	RT-K65R M184V	NRTI resistant (RT K65R M184V) ARP1006	3.24
Nc1ccn([C@H]2CC[C@@H](CO)O2)c(=O)n1	MT-4	ddI-1-resistant	IIIB	2.14
Nc1nc(=O)n([C@@H]2CS[C@H](CO)O2)cc1F	HT4 + HT4 LacZ-1	RT-D67N K70R T215F K219Q	RTMC (RT D67N K70R T215F K219Q)	4
Nc1nc2c(ncn2[C@H]2CO[C@@H](CO)O2)c(=O)[nH]1		RT-M41L D67N V106A M184V T215Y		~1.2
CC(C)=CCN1c2cc(Cl)cc3[nH]c(=S)n(c23)C[C@@H]1C	MT-4	RT-K70R K101E		15
O=C(NCc1ccc(F)cc1)c1nc(N2CCCCS2(=O)=O)c2cccnc2c1O		IN-T66I S153Y N155S		286
CC(C)=CCN1Cc2cc(Cl)cc3[nH]c(=S)n(c23)C[C@@H]1C	PBMC	RT-A98G K103R	BCF06	>312.5
CCc1cc([C@](C#CC2CC2)(OCc2ccccc2)C(F)(F)F)c(=O)[nH]c1C		RT-K103N		2.46
C[C@H](Cn1cnc2c(N)ncnc21)OCP(=O)(O)O	MT-2	RT-D67N K70R T215Y	HXB2D (RT D67N K70R T215Y)	2.4
O=C(O)P(=O)(O)O	MT-2	Remodeled TAMs (K70G V75T L228R K219R)	HXB2	6.4
Cc1cn([C@H]2C[C@H](N=[N+]=[N-])[C@@H](CO)O2)c(=O)[nH]c1=O	PBMC	RT-M184V	3TC-resistant (RT M184V)	0.3
COc1ccc(S(=O)(=O)N(CC(C)C)C[C@@H](O)[C@H](Cc2ccccc2)NC(=O)O[C@H]2CO[C@H]3OCC(F)(F)[C@H]32)cc1	MT-4	L23I E34Q K43I M46I I50L G51A L63P A71V V82A T91A ATV resistant	NL4-3	36
Nc1cccc(CN2C(=O)N(Cc3ccc4[nH]nc(-c5cccs5)c4c3)[C@H](Cc3ccccc3)[C@H](O)[C@@H](O)[C@H]2Cc2ccccc2)c1	MT-2	PR-M46I L63P A71V V82F I84V	Ritonavir-resistant (PR M46I L63P A71V V82F I84V)	>161
CC(C)(C)NC(=O)[C@@H]1CN(C(C)(C)c2cc3cnccc3o2)CCN1C[C@@H](O)C[C@@H](Cc1ccccc1)C(=O)N[C@H]1c2ccccc2C[C@H]1O		PR-L10I S37N R41K M46I I54V I62V L63P A71V V77I V82A L90M I93L	Q-60C(PR-L10I S37N R41K M46I I54V I62V L63P A71V V77I V82A L90M I93L)	>66.7
CC(C)Oc1ccc(Cc2ccccc2)cc1C(=O)CC(=O)C(=O)O		INTG-T66I N155S		94
Nc1nc2c(ncn2[C@H]2CO[C@@H](CO)O2)c(=O)[nH]1	MT-2	RT-M184V		4.17
Nc1ccn([C@H]2CC[C@@H](CO)O2)c(=O)n1	MT-2	RT-D67N K70R T215Y	HXB2D (RT D67N K70R T215Y)	1.58
Cc1cn([C@H]2C[C@H](N=[N+]=[N-])[C@@H](CO)O2)c(=O)[nH]c1=O		INTG-T66I S153Y		1
Nc1ccn([C@@H]2S[C@H](CO)C=C2F)c(=O)n1	PBMC	RT-M184V	3TC-resistant (RT M184V)	25
CC(=O)Oc1ccc(/C=C/C(=O)O[C@@H](C(=O)O)[C@@H](OC(=O)/C=C/c2ccc(OC(C)=O)c(OC(C)=O)c2)C(=O)O)cc1OC(C)=O	MT-4	AMD3100-resistant	NL4-3	>9.25
Nc1nc2c(ncn2[C@H]2CO[C@@H](CO)O2)c(=O)[nH]1		RT-D67N T69D K70R L74V K103N Y181C T215F K219Q	RT D67N 69D 70R 74V 215F 219Q 103N 181C	1.9
Nc1nc2c(ncn2[C@H]2CO[C@@H](CO)O2)c(=O)[nH]1	MT-2	RT-D67N K70R T215Y	HXB2D (RT D67N K70R T215Y)	1.42
CC(C)(C)OC(=O)N[C@@H](Cc1ccccc1)[C@H](O)CNC[C@@H](O)[C@H](Cc1ccc(OCC(=O)N2CCOCC2)cc1)NC(=O)OC(C)(C)C		PR-A71T V82A	BMS-186318-resistant (PR A71T V82A)	32.1
Nc1ccn([C@H]2CC[C@@H](CO)O2)c(=O)n1	PBMC	RT-A98G V106I Y181C	BCF02	0.2
CC(C)CN(C[C@@H](O)[C@H](Cc1ccccc1)NC(=O)O[C@H]1CCOC1)S(=O)(=O)c1ccc(N)cc1	MT-4	L10I G48V I54V A71V I84V L90M SQV resistant	NL4-3	5
Cc1cn([C@H]2C[C@H](N=[N+]=[N-])[C@@H](CO)O2)c(=O)[nH]c1=O	PBMC	RT-A98G Y181C	BCF08	1
S=C(NCCC1=CCCCC1)Nc1ccc(Cl)cn1	PBMC	RT-K103N Y181C	A17	10000

For reference, 2 entries again:

structure	cells	mutations	strain	result
S=C(NCCc1ccccn1)Nc1ccc(Br)cn1	PBMC	RT-V106A	RT-MDR(RT-V106A)	2.86
CCc1cc([C@](C#CC2CC2)(OCc2ccccc2)C(F)(F)F)c(=O)[nH]c1C		RT-K103N		2.46